Laboratory results published in PMC6105683.

By UniProt entry, the sequences of proteins in these tests, tags left out.
UniProt Q8C6L5, whole entry: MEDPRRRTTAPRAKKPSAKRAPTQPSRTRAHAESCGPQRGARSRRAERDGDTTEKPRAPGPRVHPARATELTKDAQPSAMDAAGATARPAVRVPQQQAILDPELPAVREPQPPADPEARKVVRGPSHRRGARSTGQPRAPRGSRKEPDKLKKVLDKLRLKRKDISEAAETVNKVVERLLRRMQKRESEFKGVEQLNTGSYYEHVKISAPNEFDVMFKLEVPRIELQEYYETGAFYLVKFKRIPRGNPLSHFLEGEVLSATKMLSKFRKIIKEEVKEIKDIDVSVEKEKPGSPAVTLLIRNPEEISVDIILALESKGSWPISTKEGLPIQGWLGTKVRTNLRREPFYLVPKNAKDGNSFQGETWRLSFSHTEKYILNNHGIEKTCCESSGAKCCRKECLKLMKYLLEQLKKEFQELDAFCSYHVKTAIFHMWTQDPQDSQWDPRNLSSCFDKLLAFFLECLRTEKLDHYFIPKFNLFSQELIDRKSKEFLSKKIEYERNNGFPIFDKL
UniProt Q8N884, whole entry: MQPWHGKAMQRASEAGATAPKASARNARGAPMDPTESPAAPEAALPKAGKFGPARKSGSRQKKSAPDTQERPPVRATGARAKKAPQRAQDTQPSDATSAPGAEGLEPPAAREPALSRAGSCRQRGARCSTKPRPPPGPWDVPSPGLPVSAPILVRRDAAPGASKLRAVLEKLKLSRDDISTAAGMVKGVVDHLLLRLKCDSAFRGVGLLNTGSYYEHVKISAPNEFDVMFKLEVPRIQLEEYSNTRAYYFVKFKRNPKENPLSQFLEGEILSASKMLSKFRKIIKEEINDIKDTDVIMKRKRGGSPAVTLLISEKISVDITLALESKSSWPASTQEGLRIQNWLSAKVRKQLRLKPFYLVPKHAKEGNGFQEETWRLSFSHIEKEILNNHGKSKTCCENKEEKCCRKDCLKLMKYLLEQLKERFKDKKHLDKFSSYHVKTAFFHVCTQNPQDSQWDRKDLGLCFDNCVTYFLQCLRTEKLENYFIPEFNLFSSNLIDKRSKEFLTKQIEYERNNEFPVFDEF

Key:
Assay in all cases: pull-down
[1] = target: endogenous cGAS (mouse) (UniProt Q8C6L5); settings: Zcchc3+/+ MLF or MEF lysate; protein in an extract; label: biotin
[2] = target: HA-cGAS (UniProt Q8N884); settings: enhanced by ZCCHC3 overexpression; protein in a lysate after overexpression; protein details: HA; label: biotin
[3] = target: T1, Flag-ZCCHC3 C-terminal zinc finger constructs (UniProt Q9NUD5); settings: protein in a lysate after overexpression; protein details: Flag; label: biotin
T1 sequence (looked up, limits assumed): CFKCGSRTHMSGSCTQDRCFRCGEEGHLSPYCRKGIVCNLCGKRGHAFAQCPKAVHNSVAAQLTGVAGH

[4] = target: T2, HA-ZCCHC3 (UniProt Q9NUD5); settings: protein in a lysate after overexpression; protein details: HA; label: biotin
T2 sequence (looked up, limits assumed): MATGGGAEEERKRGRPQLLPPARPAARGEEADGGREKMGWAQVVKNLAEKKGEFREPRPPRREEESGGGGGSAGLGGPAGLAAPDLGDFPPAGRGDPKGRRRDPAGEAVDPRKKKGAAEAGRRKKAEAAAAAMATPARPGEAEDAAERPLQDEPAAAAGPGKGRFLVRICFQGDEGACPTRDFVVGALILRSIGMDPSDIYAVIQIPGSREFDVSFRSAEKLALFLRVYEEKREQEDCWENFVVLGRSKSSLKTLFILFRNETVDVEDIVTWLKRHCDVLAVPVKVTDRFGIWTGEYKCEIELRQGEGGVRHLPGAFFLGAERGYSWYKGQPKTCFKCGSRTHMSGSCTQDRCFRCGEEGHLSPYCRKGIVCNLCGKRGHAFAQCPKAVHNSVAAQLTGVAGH

Measured: binding result

AGACGGTATATTTTTGCGTTATCACTGTCCCGGATTGGACACGGTCTTGTGGGATAGGCATGCCCAGAAGGCATATTGGGTTAACCCCTTTTTATTTGTGGCGGGTTTTTTGGAGGACTT (double strand) [HSV120]
binds: all assays above

The exact form of at least one protein or probe is not confirmed. Results from cells or extracts need not show a direct contact. For some of these results: At least one verdict was read from the data and is not stated in words by the source. For some of these results: Tags and fusion partners may be left off the protein sequences shown.
